Measured values from several laboratories, pooled; numbers as filed in NIAID ChemDB.

Common to all: tests in culture; organism: HIV-1

ECn: concentration that inhibits the pathogen or its effect by n%.

smiles,read by,strain or isolate,cell line,changes,tested at,measure,result
Cc1ccnc(NC(=O)NCCc2ccccc2)n1,cytopathic effect / XTT,,MT-4,,1 µg/mL,inhibition,42%
Cc1cc(S(N)(=O)=O)ccc1NC(=O)COc1ccc(Cl)cc1C(=O)c1cc(Cl)cc(C#N)c1,cytopathic effect / propidium iodide,IIIB,MT-4,,,EC50,<0.01 µM
CCc1c(Sc2cc(C)cc(C)c2)n(COCc2ccccc2)c(=S)[nH]c1=O,syncytia,IIIB,CEM,Nevirapine resistant (RT Y181C),,fold resistance,6.67
NS(=O)(=O)c1ccc(NC(=O)NCCc2ccccc2)cc1,cytopathic effect / XTT,,MT-4,,10 µg/mL,inhibition,22%
Cc1cc(C#N)cc(C(=O)c2cc(Cl)ccc2OCC(=O)Nc2ccc(S(N)(=O)=O)cc2C)c1,β-galactosidase,HXB2,HeLa + HELA CD4+,RT-K103N,,fold resistance,~1
O=C(NCCc1ccccc1)Nc1nc(-c2ccc(Br)cc2)cs1,cytopathic effect / XTT,,MT-4,,100 µg/mL,inhibition,30%
CCOCn1c(Sc2cc(C)cc(C)c2)c(CC)c(=O)[nH]c1=S,syncytia,IIIB,CEM,RT-Y181I,,fold resistance,190
S=C(NCCc1ccccc1)N1CCOCC1,cytopathic effect / XTT,,MT-4,,1 µg/mL,inhibition,13%
O=C(COc1ccc(Cl)cc1C(=O)c1ccccc1)Nc1ccc2cn[nH]c2c1,β-galactosidase,HXB2 (RT-K103N Y181C) Recombinant,HeLa + HELA CD4+,RT-K103N Y181C,,fold resistance,~10
CCOCn1c(Sc2ccccc2)c(C(C)C)c(=O)[nH]c1=S,syncytia,IIIB,CEM,RT-Y181C,,fold resistance,98.9
CC(C)=CCOc1cc(NC(=S)c2ccsc2C)ccc1Cl,p24,NL4-3,CEM + CEM-SS,RT-L74V,,fold resistance,1
O=C(COc1ccc(Cl)cc1C(=O)c1nccs1)Nc1ccc2[nH]ncc2c1,cytopathic effect / propidium iodide,Nevirapine-resistant (RT Y181C),MT-4,RT-Y181C,,fold resistance,~10
CCOCn1c(Cc2ccccc2)c(CC)c(=O)[nH]c1=O,syncytia,IIIB,CEM,RT-Y181C,,fold resistance,75
Cc1cc(C#N)cc(C(=O)c2cc(Cl)ccc2OCC(=O)Nc2ccc(OCCCN3CC=CC3)cc2C)c1,β-galactosidase,HXB2,HeLa + HELA CD4+,RT-G190A,,fold resistance,~1
CCc1c(Sc2cc(C)cc(C)c2)n(COCc2ccccc2)c(=O)[nH]c1=O,syncytia,IIIB (TIBO 82150) (RT-L100I),CEM,RT-L100I,,fold resistance,2
Cc1ccc(-c2ccc3c(c2)C=C(C(=O)Nc2ccc(C[N+](C)(C)C4CCOCC4)cc2)CCC3)cc1,p24,Du151 CLADE C,PBMC,,1 µM,inhibition,91.4%
CC(C)c1c(Sc2ccccc2)n(COCc2ccccc2)c(=S)[nH]c1=O,syncytia,IIIB,CEM,RT-Y181I,,fold resistance,1250
Cc1cc(OCCCS(N)(=O)=O)ccc1NC(=O)COc1ccc(Cl)cc1C(=O)c1cc(F)cc(C(F)(F)F)c1,β-galactosidase,HXB2,HeLa + HELA CD4+,RT-P225H,,fold resistance,~1

A second listing of 2 rows from above:

smiles | read by | strain or isolate | cell line | changes | tested at | measure | result
Cc1cc(S(N)(=O)=O)ccc1NC(=O)COc1ccc(Cl)cc1C(=O)c1cc(Cl)cc(C#N)c1 | cytopathic effect / propidium iodide | IIIB | MT-4 |  |  | EC50 | <0.01 µM
CC(C)=CCOc1cc(NC(=S)c2ccsc2C)ccc1Cl | p24 | NL4-3 | CEM + CEM-SS | RT-L74V |  | fold resistance | 1

Inhibition is in % at the dose shown (toxicity tests: loss of growth or viability). Conditions beyond the fields shown may differ between rows. Blank or dashed fields: not listed here. Fold resistance: result on the changed form divided by that on wild type.